System: Arabidopsis Col‐0 and fer‐4 seedlings
Assay: Growth of Arabidopsis seedlings (root length, shoot fresh weight)
Details: Col-0 vs fer-4, 5 μM for 3 days

O=C(O)c1cc(N(Cc2ccccc2O)Cc2cc(O)ccc2O)ccc1O [Lavendustin A]
Dependence on FER of the effect on root and shoot growth: partly dependent on FER

Source: PMC9829398 (Plant Biotechnology Journal, 2022)
